From US5972932A, “Anesthetic method and composition” (Eli Lilly and Company, priority 1997, dated 1999)

Tested on: 5-HT-2 receptor
Assay: pharmacological studies, 5-HT-2 receptor activity

SMILES: Cc1cc2c(s1)Nc1ccccc1N=C2N1CCN(C)CC1 [olanzapine, 2-methyl-4-(4-methyl-1-piperazinyl)-10H-thieno[2,3-b][1,5]benzodiazepine]
- activity at the 5-HT-2 receptor: active
